How the values were obtained:
Escherichia coli [1] = assay: Activity of Escherichia coli beta-lactamase Toho-1 F160T mutant assessed as compound hydrolysis by spectrophotometry
Escherichia coli [2] = assay: Activity of Escherichia coli beta-lactamase Toho-1 […] mutant assessed as compound hydrolysis by spectrophotometry
Escherichia coli [3] = assay: Ratio of Kcat to Km for Escherichia coli beta-lactamase Toho-1 N104D mutant assessed as compound hydrolysis by spectrophotometry
Escherichia coli [4] = assay: Activity of Escherichia coli beta-lactamase Toho-1 N104D mutant assessed as compound hydrolysis by spectrophotometry
Escherichia coli [5] = assay: Ratio of Kcat to Km for Escherichia coli beta-lactamase Toho-1 D240A mutant assessed as compound hydrolysis by spectrophotometry
Escherichia coli [6] = assay: Activity of Escherichia coli beta-lactamase Toho-1 G232A mutant assessed as compound hydrolysis by spectrophotometry
Escherichia coli [7] = assay: Ratio of Kcat to Km for Escherichia coli beta-lactamase Toho-1 G232A mutant assessed as compound hydrolysis by spectrophotometry
Escherichia coli [8] = assay: Ratio of Kcat to Km for Escherichia coli beta-lactamase Toho-1 C69A mutant assessed as compound hydrolysis by spectrophotometry
Escherichia coli [9] = assay: Ratio of Kcat to Km for Escherichia coli beta-lactamase Toho-1 D240S mutant assessed as compound hydrolysis by spectrophotometry
Escherichia coli [10] = assay: Ratio of Kcat to Km for Escherichia coli beta-lactamase Toho-1 […] mutant assessed as compound hydrolysis by spectrophotometry
Escherichia coli [11] = assay: Ratio of Kcat to Km for Escherichia coli beta-lactamase Toho-1 N104A mutant assessed as compound hydrolysis by spectrophotometry
Escherichia coli [12] = assay: Activity of Escherichia coli beta-lactamase Toho-1 N104A mutant assessed as compound hydrolysis by spectrophotometry
Escherichia coli [13] = assay: Ratio of Kcat to Km for Escherichia coli beta-lactamase Toho-1 F160T mutant assessed as compound hydrolysis by spectrophotometry
Escherichia coli [14] = assay: Activity of Escherichia coli beta-lactamase Toho-1 D240A mutant assessed as compound hydrolysis by spectrophotometry
Escherichia coli [15] = assay: Activity of Escherichia coli beta-lactamase Toho-1 D240S mutant assessed as compound hydrolysis by spectrophotometry
Escherichia coli [16] = assay: Activity of Escherichia coli beta-lactamase Toho-1 C69A mutant assessed as compound hydrolysis by spectrophotometry

Work on CC1(C)S[C@@H]2[C@H](NC(=O)Cc3ccccc3)C(=O)N2[C@H]1C(=O)O yielded a Km (Escherichia coli [1]) of 22 µM, a kcat (Escherichia coli [1]) of 64 s⁻¹ and a Km (Escherichia coli [2]) of 46 µM. It also gave a kcat/Km (Escherichia coli [3]) of 7.4 ×10⁵ /s/M, a Km (Escherichia coli [4]) of 51 µM and a kcat (Escherichia coli [4]) of 38 s⁻¹. For the same compound, the kcat/Km (Escherichia coli [5]) was 1.8 ×10⁶ /s/M, the Km (Escherichia coli [6]) was 25 µM and the kcat/Km (Escherichia coli [7]) was 2.3 ×10⁶ /s/M. For the same compound, the kcat/Km (Escherichia coli [8]) was 3.5 ×10⁶ /s/M, the kcat/Km (Escherichia coli [9]) was 2.2 ×10⁶ /s/M and the kcat/Km (Escherichia coli [10]) was 6.1 ×10⁶ /s/M. The kcat/Km (Escherichia coli [11]) was 1.1 ×10⁶ /s/M, the Km (Escherichia coli [12]) was 29 µM and the kcat/Km (Escherichia coli [13]) was 2.9 ×10⁶ /s/M. For the same compound, the Km (Escherichia coli [14]) was 16 µM, the Km (Escherichia coli [15]) was 17 µM and the kcat (Escherichia coli [15]) was 37 s⁻¹. For the same compound, the Km (Escherichia coli [16]) was 16 µM.
